From paper PMC8865542, “The Large Nonstructural Protein (NS1) of Human Bocavirus 1 Directly Interacts with Ku70, Which Plays an Important Role in Virus Replication in Human Airway Epithelia” (Journal of Virology, 2021) come the findings set out here.

The target in the assay is T1, HBoV1 NS[…] with Flag and His tags (human bocavirus 1 (HBoV1)).
T1 construct: source: E. coli BL21/DE3 pLysS, purified (His tag, Sephadex G75)
Nature of the assay: BLI. As to conditions: both partners purified.

B1: Ku70 domain A (α/β domain) with Strep-tag II (domain or fragment, UniProt P12956 1-250, looked up)
chain: MSGWESYYKTEGDEEAEEEQEENLEASGDYKYSGRDSLIFLVDASKAMFESQSEDELTPFDMSIQCIQSVYISKIISSDRDLLAVVFYGTEKDKNSVNFKNIYVLQELDNPGAKRILELDQFKGQQGQKRFQDMMGHGSDYSLSEVLWVCANLFSDVQFKMSHKRIMLFTNEDNPHGNDSAKASRARTKAGDLRDTGIFLDLMHLKKPGGFDISLFYRDIISIAEDEDLRVHFEESSKLEDLLRKVRAKE
notes: also called Strep-tagged domain A; source: E. coli BL21(DE3), purified (Strep-Tactin agarose); not shown: Strep-tag II, C-terminal, kept
Usually Kd stands for the constant that tells how readily two partners part at equilibrium. B1 yielded a dissociation constant Kd of 670 nM.

B2: Ku70 with Strep-tag II (natural protein, UniProt P12956 1-609, looked up)
chain: MSGWESYYKTEGDEEAEEEQEENLEASGDYKYSGRDSLIFLVDASKAMFESQSEDELTPFDMSIQCIQSVYISKIISSDRDLLAVVFYGTEKDKNSVNFKNIYVLQELDNPGAKRILELDQFKGQQGQKRFQDMMGHGSDYSLSEVLWVCANLFSDVQFKMSHKRIMLFTNEDNPHGNDSAKASRARTKAGDLRDTGIFLDLMHLKKPGGFDISLFYRDIISIAEDEDLRVHFEESSKLEDLLRKVRAKETRKRALSRLKLKLNKDIVISVGIYNLVQKALKPPPIKLYRETNEPVKTKTRTFNTSTGGLLLPSDTKRSQIYGSRQIILEKEETEELKRFDDPGLMLMGFKPLVLLKKHHYLRPSLFVYPEESLVIGSSTLFSALLIKCLEKEVAALCRYTPRRNIPPYFVALVPQEEELDDQKIQVTPPGFQLVFLPFADDKRKMPFTEKIMATPEQVGKMKAIVEKLRFTYRSDSFENPVLQQHFRNLEALALDLMEPEQAVDLTLPKVEAMNKRLGSLVDEFKELVYPPDYNPEGKVTKRKHDNEGSGSKRPKVEYSEEELKTHISKGTLGKFTVPMLKEACRAYGLKSGLKKQELLEALTKHFQD
notes: also called Ku70^Strep; full-length Ku70; source: E. coli BL21(DE3), purified (Strep-Tactin Superflow); not shown: Strep-tag II, C-terminal, kept
The molecule B2 came in with a Kd of 160 nM.
